From paper PMC7791793, “Mechanism of hERG inhibition by gating-modifier toxin, APETx1, deduced by functional characterization” (2021)

Biological target: human ether-à-go-go-related gene potassium channel 1 (hERG), stable HEK 293 cell line (human) (UniProt Q12809)

In the case of “recombinant APETx3 (APETx1 T3P) (peptide)”, the ΔV1/2 of hERG at 10 μM recombinant APETx3 (T3P), whole-cell patch clamp is reported as 19 mV.
